Results of unrelated studies side by side (data: NIAID ChemDB).

Common to all: tests in culture; species: Human cytomegalovirus; cell line: HFF; endpoint: EC50

Neighbouring rows are from separate reports. ECn is the concentration giving n% inhibition of infection, replication or growth.

SMILES,strain,read by,result
Nc1nc2c(ncn2C=C2CC2CO)c(=O)[nH]1,CH,plaque count,3.1 µM
OC[C@H]1O[C@@H](n2c(Br)nc3cc(Cl)c(Cl)cc32)[C@H](O)[C@@H]1O,TOWNE,virus yield,<0.45 µM
Nc1nc2c(ncn2COC(CO)CO)c(=O)[nH]1,DAVIS,plaque count,4.3 µM
Nc1nc2c(ncn2/C=C2/CC2(CO)CO)c(=O)[nH]1,GDGRP53 (ganciclovir- foscarnet-resistant),plaque count,0.8 µM
Nc1ccn(C[C@@H](CO)OCP(=O)(O)O)c(=O)n1,GDGrP53,plaque count,1.9 µM
Nc1ccn(C[C@@H](CO)OCP(=O)(O)O)c(=O)n1,1117R3-1-2 cidofovir-resistant,plaque count,2 µg/mL
CCCCCCCC/C=C\CCCCCCCCOCCOP(=O)(O)CO[C@H](CO)Cn1ccc(N)nc1=O,1117-R,plaque count,0.04 µM
Nc1ncnc2c1ncn2/C=C1/C[C@H]1CO,AD169,plaque count,4.2 µM
Nc1ccn(C=C2C[C@H]2CO)c(=O)n1,AD169,plaque count,23.8 µM
OC[C@H]1O[C@@H](n2c(Br)nc3cc(Cl)c(Cl)cc32)[C@H](O)[C@@H]1O,Toledo,plaque count,1.1 µM
C[C@@H]1O[C@@H](n2c(Cl)nc3cc(Cl)c(Cl)cc32)[C@H](O)[C@@H]1O,D10 (BDCRB- and maribavir-resistant),plaque count,0.54 µM
Nc1nc2c(ncn2COC(CO)CO)c(=O)[nH]1,C4 (BDCRB-resistant),plaque count,2.8 µM
Cn1cc(C(=O)NCc2ccc(Cl)cc2)c(=O)c2cc(CN3CCOCC3)ccc21,PFA/R B300 (PFA-resistant),plaque count,4.7 µM
CCCCCCCCCCCCCCCCOP(=O)(O)CO[C@H](CO)Cn1ccc(N)nc1=O,VR4760 (foscarnet-resistant),plaque count,0.01 µM
O[C@@H]1[C@H](O)[C@H](O)CO[C@H]1n1c(Br)nc2cc(Cl)c(Cl)cc21,759RD100 (drug-resistant),plaque count,2.1 µM
Nc1nc2c(ncn2COC(CO)CO)c(=O)[nH]1,BT1493,plaque count,1.1 µM
Nc1nc2c(ncn2COC(CO)CO)c(=O)[nH]1,R56 (BDCRB- maribavir-resistant),plaque count,13.3 µM
Cn1cc(C(=O)NCc2ccc(Cl)cc2)c(=O)c2cc(CN3CCOCC3)ccc21,NE,plaque count,0.2 µM
CCCCCCCCCCCCCCCCCCOC[C@H](COP(=O)(O)CO[C@H](CO)Cn1ccc(N)nc1=O)OCc1ccccc1,GDGrP53,plaque count,0.02 µM
OC[C@H]1O[C@@H](n2c(Br)nc3cc(Cl)c(Cl)cc32)[C@H](O)[C@@H]1O,Isolate C4 mutations D344E + Q204R,plaque count,28 µM
O=C(NCc1ccc(Cl)cc1)c1cn2c3c(cc(CN4CCOCC4)cc3c1=O)OC(c1cccnc1)C2,EC,plaque count,5.8 µM
CCCCCCCCCCCCOCCCOP(=O)(O)CO[C@H](CO)Cn1ccc(N)nc1=O,Coffman,plaque count,0.08 µM
COC(=O)[C@H](C)NP(=O)(OC[C@H]1C/C1=C/n1cnc2c(OC)nc(N)nc21)Oc1ccccc1,AD169,plaque count,4.5 µM
OC[C@H]1O[C@@H](n2c(Br)nc3cc(Cl)c(Cl)cc32)[C@H](O)[C@@H]1O,TOWNE,plaque count,2.7 µM
CCCCCCCC/C=C\CCCCCCCOCCCOP(=O)(O)CO[C@H](CO)Cn1ccc(N)nc1=O,TOWNE,plaque count,0.002 µM
Nc1nc2c(ncn2C[C@@H]2CC[C@@H](P(=O)(O)O)O2)c(=O)[nH]1,TOWNE,plaque count,0.08 µg/mL
Nc1nc(NC2CC2)c2ncn(C=C3CC3CO)c2n1,C8708/17-1-1,plaque count,4.4 µM